Results of unrelated studies side by side (data: NIAID ChemDB).

Common to all: tests in culture; agent: Aspergillus fumigatus

Blank or dashed fields: not listed here.

SMILES | strain or isolate | read-out | read by | value
COc1cc2ccnc3c2c(c1OC(=O)c1cccc(F)c1F)N(C)C=C3 | - | EC50 | - | >15 µg/mL
c1ccc(-c2c(C(c3ccccc3)n3ccnc3)cnn2-c2ccccc2)cc1 | - | MIC | - | >200 µM
COc1cc(NS(=O)(=O)c2ccc(N)cc2)ncn1 | IFM 53412 | MIC | - | ≥256 µg/mL
CCCc1c(C(c2ccccc2)n2cncn2)cnn1-c1ccccc1 | - | MIC | - | >200 µM
Cc1ccc(-c2[nH]c3ccccc3c2-c2c(CN)c(N)n3c(nc4cc(C)ccc43)c2CN)cc1 | MTCC 3008 | MIC | broth dilution | 500 µg/mL
OC(CN=C1CCN(CCCCCOc2ccccc2)CC1)(Cn1cncn1)c1ccc(F)cc1F | - | MIC80 | - | >129 µM
Cc1c(C(C)n2ccnc2)c2ccccc2n1Cc1ccc(Cl)cc1Cl | AF980003 | MIC80 | - | >100 µg/mL
NC(=S)c1ccnc(SCc2ccc(Br)cc2)c1 | 231 | MIC | - | 62.5 µM
C[C@H]1[C@H](O)[C@@H](C)/C=C/C=C/C=C/C=C/C=C/C=C/C=C/[C@H](O[C@@H]2O[C@H](C)[C@@H](O)[C@H](N)[C@@H]2O)C[C@@H]2O[C@](O)(C[C@@H](O)C[C@@H](O)CC[C@H](O)[C@@H](O)C[C@@H](O)CC(=O)O[C@H]1C)C[C@H](O)[C@H]2C(=O)O | Clinical isolate | MFC | XTT | 1–2 µg/mL
NC(=S)c1ccnc(SCc2ccccc2Cl)c1 | 231 | MIC | - | >1000 µM
CC(C)CCCCCCCCCC1CC(=O)NCC(=O)N[C@@H](CCCCN)C(=O)N[C@@H](C(C)C)C(=O)N1 | TIMM0063 | MIC | - | >80 µg/mL
Cn1ncc(C(c2ccccc2)n2ccnc2)c1-c1ccccc1 | - | MIC | - | >200 µM
COc1cc(NS(=O)(=O)c2ccc(N)cc2)nc(OC)n1 | IFM 51126 | MIC | - | 128 µg/mL
CCCCCOc1ccc(-c2cc(-c3ccc(C(=O)N[C@H]4C[C@@H](O)[C@@H](O)NC(=O)[C@@H]5[C@@H](O)[C@@H](C)CN5C(=O)[C@H]([C@H](O)CC(N)=O)NC(=O)[C@H]([C@H](O)[C@@H](O)c5ccc(O)c(OS(=O)(=O)O)c5)NC(=O)[C@@H]5C[C@@H](O)CN5C(=O)[C@H]([C@@H](C)O)NC4=O)cc3)no2)cc1 | 19 isolates | MFC90 | - | >64 µg/mL
CCCCCCCCOc1ccc(-c2ccc(C(=O)NC3CC(NCCN)CNC(=O)[C@@H]4[C@@H](O)[C@@H](C)CN4C(=O)[C@@H](CO)NC(=O)[C@H]([C@H](O)Cc4ccccc4)NC(=O)[C@@H]4C[C@@H](O)CN4C(=O)[C@H]([C@@H](C)O)NC3=O)cc2)cc1 | 25 isolates | MIC50 | - | 0.25 µg/mL
Cc1nnc(NS(=O)(=O)c2ccc(N)cc2)s1 | IFM 51126 | MIC | - | ≥256 µg/mL
CCC(C)n1ncn(-c2ccc(N3CCN(c4ccc(OC[C@H]5CO[C@](Cn6cncn6)(c6ccc(Cl)cc6Cl)O5)cc4)CC3)cc2)c1=O | 25 isolates | MIC50 | - | 1 µg/mL
Cc1ccc2c(c1)nc1c(CN)c(-c3c(-c4ccc(S(C)(=O)=O)cc4)[nH]c4ccccc34)c(CN)c(N)n12 | MTCC 3008 | MIC | broth dilution | 1000 µg/mL
CCC(CC)n1ncn(-c2ccc(N3CCN(c4ccc(OC[C@@H]5CO[C@@](Cn6cncn6)(c6ccc(F)cc6F)C5)cc4)CC3)cc2)c1=O | H11-20 | MIC | - | ≤0.018 µg/mL
COc1cc2ccnc3c2c(c1O)N(C)C=C3 | - | EC50 | - | >15 µg/mL
Cc1c(C(c2ccccc2)n2cncn2)cnn1-c1ccccc1 | - | MIC | - | >200 µM
CCC(C)CC(C)CCCCCCCCC(=O)N[C@H]1C[C@@H](O)[C@H](NCCN)NC(=O)[C@@H]2[C@@H](O)CCN2C(=O)[C@H]([C@H](O)CCN)NC(=O)[C@H]([C@H](O)[C@@H](O)c2ccc(O)cc2)NC(=O)[C@@H]2C[C@@H](O)CN2C(=O)[C@H]([C@@H](C)O)NC1=O | - | MIC | XTT | 0.5 µg/mL
CN(CCCOc1ccccc1)CC(O)(Cn1cncn1)c1ccc(F)cc1F | - | MIC80 | - | >159 µM
COc1ccc(-c2[nH]c3ccccc3c2-c2c(CN)c(N)n3c(nc4ccccc43)c2CN)cc1 | MTCC 3008 | MIC | broth dilution | 1000 µg/mL
CC(C(O)(Cn1cncn1)c1ccc(F)cc1F)S(C)(=O)=O | H11-20 | MLC | - | >80 µg/mL
CCC(C)n1ncn(-c2ccc(N3CCN(c4ccc(OC[C@H]5CO[C@](Cn6cncn6)(c6ccc(Cl)cc6Cl)O5)cc4)CC3)cc2)c1=O | 3 clinical isolates | MIC90 | - | 1 µg/mL
CCOC(=O)C1C(c2cc3cc(OC)ccc3nc2Cl)C2=C(CCCC2=O)N(c2cccnc2)C1N | MTCC 3008 | MIC99 | broth dilution | 500 µg/mL
Cc1ccc2c(c1)nc1c(CN)c(-c3c(-c4ccc(Br)cc4)[nH]c4ccccc34)c(CN)c(N)n12 | MTCC 3008 | MIC | broth dilution | 1000 µg/mL
Cc1ccc2nc(Cl)c(C3C4=C(CCCC4=O)N(c4cccnc4)C(N)C3C#N)cc2c1 | MTCC 3008 | MIC99 | broth dilution | >1000 µg/mL
CCC(C)n1ncn(-c2ccc(N3CCN(c4ccc(OC[C@H]5CO[C@](Cn6cncn6)(c6ccc(Cl)cc6Cl)O5)cc4)CC3)cc2)c1=O | 94 isolates | Geometric mean MFC | - | 1.57 µg/mL
C[C@H]1[C@H](O)[C@@H](C)/C=C/C=C/C=C/C=C/C=C/C=C/C=C/[C@H](O[C@@H]2O[C@H](C)[C@@H](O)[C@H](N)[C@@H]2O)C[C@@H]2O[C@](O)(C[C@@H](O)C[C@@H](O)CC[C@H](O)[C@@H](O)C[C@@H](O)CC(=O)O[C@H]1C)C[C@H](O)[C@H]2C(=O)O | - | MLC50 | - | 1 µg/mL
CCCC(c1cn(Cc2ccc(Cl)cc2)c2ccc(Br)cc12)n1ccnc1 | AF980003 | MIC80 | - | >100 µg/mL
CCC(C)n1ncn(-c2ccc(N3CCN(c4ccc(OC[C@H]5CO[C@](Cn6cncn6)(c6ccc(Cl)cc6Cl)O5)cc4)CC3)cc2)c1=O | 35 isolates | MIC90 | - | 2 µg/mL
NC(=O)N/N=C/c1ccsc1.NC(=O)N/N=C/c1ccsc1.[Br][Ni][Br] | CBS 113.26 | MIC80 | turbidity / absorbance | >250 µg/mL
CCOC(=O)C1C(c2cc3cc(C)ccc3nc2Cl)C2=C(CCCC2=O)N(c2cccnc2)C1N | MTCC 3008 | MIC99 | broth dilution | 500 µg/mL
COc1cc2ccnc3c2c(c1OC(=O)c1cccc(C)c1)N(C)C=C3 | - | EC50 | - | >15 µg/mL
Cc1cc(NS(=O)(=O)c2ccc(N)cc2)nc(C)n1 | IFM 48051 | MIC | - | ≥256 µg/mL
NC(=S)c1ccnc(SCc2cccc(Br)c2)c1 | 231 | MIC | - | >500 µM
OC(CN1CCCN(CCCOc2ccccc2)C1)(Cn1cncn1)c1ccc(F)cc1F | - | MIC80 | - | >140 µM
C[C@@H](n1cnc2cc(Cl)ccc2c1=O)[C@](O)(Cn1cncn1)c1ccc(F)cc1F | 10 clinical isolates | MIC50 | - | 0.06 µg/mL
C[C@@H](c1ncncc1F)[C@](O)(Cn1cncn1)c1ccc(F)cc1F | - | MIC50 | - | 0.25 µg/mL
NC(=S)c1ccnc(SCc2c(F)cccc2[N+](=O)[O-])c1 | 231 | MIC | - | 250 µM
Clc1ccc(COC(Cn2ccnc2)c2ccc(Cl)cc2Cl)c(Cl)c1 | 25 isolates | MIC50 | - | 4 µg/mL
OC(CN=C1CCN(CCCOc2ccccc2)CC1)(Cn1cncn1)c1ccc(F)cc1F | - | MIC80 | - | >136 µM
C[C@H]1[C@H](O)[C@@H](C)/C=C/C=C/C=C/C=C/C=C/C=C/C=C/[C@H](O[C@@H]2O[C@H](C)[C@@H](O)[C@H](N)[C@@H]2O)C[C@@H]2O[C@](O)(C[C@@H](O)C[C@@H](O)CC[C@H](O)[C@@H](O)C[C@@H](O)CC(=O)O[C@H]1C)C[C@H](O)[C@H]2C(=O)O | 25 isolates | MIC50 | - | 0.5 µg/mL
CCC(C)CCCCCCC1CC(=O)NCC(=O)N[C@@H](CCCN)C(=O)N[C@@H](C(C)CC)C(=O)N1 | TIMM0063 | MIC | - | >80 µg/mL
CCCCc1ccc(C(=O)Oc2c(OC)cc3ccnc4c3c2N(C)C=C4)cc1 | - | EC50 | - | 5 µg/mL
NCc1c(-c2c(-c3ccc([N+](=O)[O-])cc3)[nH]c3ccccc23)c(CN)c2nc3ccccc3n2c1N | MTCC 3008 | MIC | broth dilution | 1000 µg/mL
Clc1ccc(Cn2cc(Cn3ccnc3)c3ccccc32)c(Cl)c1 | AF980003 | MIC80 | - | 20 µg/mL
CCC(C)n1ncn(-c2ccc(N3CCN(c4ccc(OC[C@H]5CO[C@](Cn6cncn6)(c6ccc(Cl)cc6Cl)O5)cc4)CC3)cc2)c1=O | 35 isolates | Geometric mean MFC | - | 10.55 µg/mL
CCCC(c1cn(Cc2ccc(Cl)cc2)c2ccccc12)n1ccnc1 | AF980003 | MIC80 | - | >100 µg/mL
C[C@@H](c1ncncc1F)[C@](O)(Cn1cncn1)c1ccc(F)cc1F | 25 isolates | MIC90 | - | 0.5 µg/mL
COc1cc2ccnc3c2c(c1OC(=O)c1ccc(C(C)(C)C)cc1)N(C)C=C3 | - | MIC | - | 10 µg/mL
CC(N1CCN(c2ccc(-n3cnnn3)cc2)C1=O)[C@](O)(Cn1cncn1)c1ccc(F)cc1F | TIMM1728 | MIC | - | 0.5 µg/mL
CCC(C)n1ncn(-c2ccc(N3CCN(c4ccc(OC[C@H]5CO[C@](Cn6cncn6)(c6ccc(Cl)cc6Cl)O5)cc4)CC3)cc2)c1=O | Clinical isolates | MIC | - | 4 µg/mL
NC(=O)N/N=C/c1ccsc1.NC(=O)N/N=C/c1ccsc1.[Cl][Ni][Cl] | CBS 113.26 | MIC80 | turbidity / absorbance | >250 µg/mL
NC(=S)c1ccnc(SCc2ccc(F)cc2)c1 | 231 | MIC | - | 125 µM
CCC(C)n1ncn(-c2ccc(N3CCN(c4ccc(OC[C@H]5CO[C@](Cn6cncn6)(c6ccc(Cl)cc6Cl)O5)cc4)CC3)cc2)c1=O | - | MIC50 | - | 0.05 µg/mL
CCOC(=O)C1C(c2cc3cc(Cl)ccc3nc2Cl)C2=C(CCCC2=O)N(c2cccnc2)C1N | MTCC 3008 | MIC99 | broth dilution | 500 µg/mL
CC[C@@H]([C@H](C)O)n1ncn(-c2ccc(N3CCN(c4ccc(OC[C@@H]5CO[C@@](Cn6cncn6)(c6ccc(F)cc6F)C5)cc4)CC3)cc2)c1=O | - | MIC90 | - | 0.5 µg/mL
C[C@@H](c1ncncc1F)[C@](O)(Cn1cncn1)c1ccc(F)cc1F | - | MIC | XTT | 0.5 µg/mL
Clc1ccc(Cn2cc(Cn3ccnc3)c3cc(Br)ccc32)cc1 | AF980003 | MIC80 | - | >100 µg/mL
COc1ccc2nc(Cl)c(C3C4=C(CCCC4=O)N(c4cccnc4)C(N)C3C#N)cc2c1 | MTCC 3008 | MIC99 | broth dilution | >1000 µg/mL
COc1ccc(-c2[nH]c3ccccc3c2-c2c(CN)c(N)n3c(nc4cc(C)ccc43)c2CN)cc1 | MTCC 3008 | MIC | broth dilution | >1000 µg/mL
Cc1ccc(C(C)C)c(O)c1 | F05 | MIC | - | 0.16 µg/mL
COC(=O)C1C(c2cc3cc(Cl)ccc3nc2Cl)C2=C(CCCC2=O)N(c2cccnc2)C1N | MTCC 3008 | MIC99 | broth dilution | 500 µg/mL

Repeating the first 6 entries:

SMILES,strain or isolate,read-out,read by,value
COc1cc2ccnc3c2c(c1OC(=O)c1cccc(F)c1F)N(C)C=C3,-,EC50,-,>15 µg/mL
c1ccc(-c2c(C(c3ccccc3)n3ccnc3)cnn2-c2ccccc2)cc1,-,MIC,-,>200 µM
COc1cc(NS(=O)(=O)c2ccc(N)cc2)ncn1,IFM 53412,MIC,-,≥256 µg/mL
CCCc1c(C(c2ccccc2)n2cncn2)cnn1-c1ccccc1,-,MIC,-,>200 µM
Cc1ccc(-c2[nH]c3ccccc3c2-c2c(CN)c(N)n3c(nc4cc(C)ccc43)c2CN)cc1,MTCC 3008,MIC,broth dilution,500 µg/mL
OC(CN=C1CCN(CCCCCOc2ccccc2)CC1)(Cn1cncn1)c1ccc(F)cc1F,-,MIC80,-,>129 µM

MIC50, MIC90 and the like: level of inhibition, or share of isolates inhibited. ECn: concentration that inhibits the pathogen or its effect by n%. Rows are shuffled and stem from different studies. Two numbers with a dash give a range or band.